From patent US20150104459A1, “Compositions and Methods for the Therapy and Diagnosis of Influenza” (published 2015)
Where “and” joins values, the source holds several entries; their conditions need not be identical. Equal entries are not always repeated.

Legend:
[1] = target: recombinant homotrimeric HA, A/Hong Kong/2108/03 H9N2 (Influenza A virus A/Hong Kong/2108/03 …); assay: trimeric HA microarray; transfection supernatant set 2
[2] = target: T1, recombinant homotrimeric HA, A/Egypt/3300-NAMRU3/08 H5N1 (Influenza A virus …); assay: as above
[3] = target: T2, recombinant homotrimeric HA, A/California/4/09 H1N1 (Influenza A virus A/California/4/09 …); assay: as above
[4] = target: recombinant homotrimeric HA, A/duck/Yangzhou/02/05 H8N4 (Influenza A virus …); assay: as above
[5] = target: T3, recombinant homotrimeric HA, A/chicken/Vietnam/NCVD-016/08 H5N1 (Influenza A virus …); assay: as above
[6] = target: T4, recombinant homotrimeric HA, A/swine/Ontario/01911-2/99 H4N6 (Influenza A virus …); assay: as above
[7] = target: T5, recombinant homotrimeric HA, A/Solomon Islands/3/06 H1N1 (Influenza A virus A/Solomon …); assay: as above
[8] = target: recombinant homotrimeric HA, A/Wisconsin/67/05 H3N2 (Influenza A virus A/Wisconsin/67/05 …)
[9] = target: recombinant homotrimeric HA, A/Netherlands/219/03 H7N7 (Influenza A virus A/Netherlands/219/03 …)
[10] = target: T6, recombinant homotrimeric HA, A/northern shoveler/California/HKWF115/07 (Influenza A virus A/northern …); assay: trimeric HA microarray; transfection supernatant set 2
[11] = target: T2, recombinant homotrimeric HA, …; assay: trimeric HA microarray; transfection supernatant set 4
[12] = target: T5, recombinant homotrimeric HA, A/Solomon …; assay: as above
[13] = target: T2, recombinant homotrimeric HA, …; assay: trimeric HA microarray; transfection supernatant set 5
[14] = target: T5, recombinant homotrimeric HA, A/Solomon …; assay: as above
[15] = target: T2, recombinant homotrimeric HA, …; assay: trimeric HA microarray; transfection supernatant set 3
[16] = target: T5, recombinant homotrimeric HA, A/Solomon …; assay: as above
[17] = target: T2, recombinant homotrimeric HA, …; assay: trimeric HA microarray; transfection supernatant set 1
[18] = target: T5, recombinant homotrimeric HA, A/Solomon …; assay: as above
[19] = target: T6, recombinant homotrimeric HA, A/northern …; assay: trimeric HA microarray; transfection supernatant set 3
[20] = target: T1, recombinant homotrimeric HA, …; assay: as above
[21] = target: T3, recombinant homotrimeric HA, …; assay: as above
[22] = target: recombinant homotrimeric HA, A/Hong Kong/1073/99 H9N2 (Influenza A virus A/Hong Kong/1073/99 …); assay: as above
[23] = target: T4, recombinant homotrimeric HA, …; assay: as above
[24] = target: T1, recombinant homotrimeric HA, …; assay: trimeric HA microarray; transfection supernatant set 4
[25] = target: T4, recombinant homotrimeric HA, …; assay: as above
[26] = target: recombinant homotrimeric HA, A/Japan/305/57 H2N2 (Influenza A virus A/Japan/305/57 (H2N2))

B1: TCN-527 (5086_C06) (antibody, V domains shown)
VH: QVQLQESGPGLVKPSETLSLNCAVSGGSISNYYWSWIRQPPGKGLEWIGYISYNGRPKYNPSLTSRVTISVDTSKDQFSLELRSVTAADTALYYCARETRFGELLSPYDAFEIWGQGTMVTVSS
VL: DIQMTQSPSSLSASVGDRVTMTCRASQNIRSYLNWYQQRPGTAPKLLIYAASTLHSGVPSRFSGGGSGTDFTLTINNLQPEDFASYYCQQSYDNPQTFGQGTKVEIK
[1]
  Trimeric HA Binding: RLU: 25500 RLU
[2]
  Trimeric HA Binding: RLU: 23600 RLU
[3]
  Trimeric HA Binding: RLU: 21500 RLU
[4]
  Trimeric HA Binding: RLU: 17900 RLU
[5]
  Trimeric HA Binding: RLU: 20100 RLU
[6]
  Trimeric HA Binding: RLU: 30100 RLU
[7]
  Trimeric HA Binding: RLU: 19700 RLU
[8]
  Trimeric HA Binding: RLU: 35800 RLU
[9]
  Trimeric HA Binding: RLU: 49100 RLU

B2: TCN-528 (5087_P17) (antibody, V domains shown)
VH: QVQLVQSGSEVKKPGASVKVSCKASGYTFTNYDINWIRQAPGQGLEWMGWINPNSGTTGSAQRFQGRVTITVDTSITTVYMELSSLRSDDTAIYYCARGRELLRLQHFLTDSQSERRDCFDPWGQGTLVTVSS
VL: DIQMTQSPSSLSASVGDRVTITCRANQDIGIYLNWYQQNPGKVPKLLLHGASSLQGGVPSRFSASGSGTDFTLTIHSLQPEDLATYYCQQSRRLPYTFGQGTRVELK
[10]
  Trimeric HA Binding: RLU: 28400 RLU
[1]
  Trimeric HA Binding: RLU: 33600 RLU
[2]
  Trimeric HA Binding: RLU: 36800 RLU
[3]
  Trimeric HA Binding: RLU: 44600 RLU
[4]
  Trimeric HA Binding: RLU: 19800 RLU
[5]
  Trimeric HA Binding: RLU: 22600 RLU
[6]
  Trimeric HA Binding: RLU: 49200 RLU
[7]
  Trimeric HA Binding: RLU: 26900 RLU
[8]
  Trimeric HA Binding: RLU: 46000 RLU
[9]
  Trimeric HA Binding: RLU: 47200 RLU

B3: TCN-504 (3251_K17) (antibody, V domains shown)
VH: QVQLQESGPGLVKPSETLSLTCAVSGVSISNIDFYWGWIRQPPGKGLEWIGNIYYTGITFYNPSLSSRVAISIDTSKNQFSLTLTSVTAADTAMYYCARHYGDSEAINDAFDIWGQGTMLTVSS
VL: EIVMTQSPATLSVSPGERATLSCRASQSVGNSLAWYQQRPGQAPRLLIYGASTRATGIPPRFSGSGSGTEFTLTISSLQTEDFAVYYCQQYINWRPLSFGGGTKVEIK
[11]
  Trimeric HA Binding: RLU: 549 RLU
[12]
  Trimeric HA Binding: RLU: 14600 RLU
[3]
  Trimeric HA Binding: RLU: 15600 RLU
[7]
  Trimeric HA Binding: RLU: 31400 RLU
[8]
  Trimeric HA Binding: RLU: 21600 RLU and 21400 RLU and 20600 RLU and 38100 RLU and 14300 RLU
[13]
  Trimeric HA Binding: RLU: 17600 RLU
[14]
  Trimeric HA Binding: RLU: 30100 RLU
[15]
  Trimeric HA Binding: RLU: 18600 RLU
[16]
  Trimeric HA Binding: RLU: 32700 RLU
[17]
  Trimeric HA Binding: RLU: 18300 RLU
[18]
  Trimeric HA Binding: RLU: 29800 RLU

B4: TCN-523 (5248_A17) (antibody, V domains shown)
VH: QVQLVQSGAEVKKPGSSVKVSCKASGGSFSNYAFSWVRQAPGQGLEWMGGTIPLLGTTNYAQKFQGRVTISADQFTSTAYMELGSLRSEDTAVYYCTRRKMTTAFDSWGQGTLVTVSS
VL: QPVLTQPPSASASLGASVTLTCTLSSAYSNYKVDWYQQRPGKGPRFVMRVGTGGIVGSKGDGIPDRFSVLGSGLNRYLTIKNIQEEDESDYHCGADHGSGSNFVSPYVFGGGTKLTVL
[12]
  Trimeric HA Binding: RLU: 371 RLU
[7]
  Trimeric HA Binding: RLU: 3270 RLU
[14]
  Trimeric HA Binding: RLU: 37600 RLU
[16]
  Trimeric HA Binding: RLU: 11000 RLU
[18]
  Trimeric HA Binding: RLU: 6780 RLU

B5: TCN-530 (5248_H10a) (antibody, V domains shown)
VH: QVQLVQSGAEVRKPGSSVKVSCKASGGPFMSYAIGWVRQAPGQGLEWMGGINPVFGRPHYAQKFQGRVTIATDDSTKTSYMELSSLTSEDTGMYYCASRYSRSSPGTFESWGQGTLVTVSS
VL: EIVMTQFPATLSVSPGERVTLSCRASQSVSNNLAWYQQKPGQPPRLLIYDASTRATGVPAKFSGTGSGTEFTLSISSLQSEDFAVYYCQQYHNWPPSYSFGLGTKLEIK
[19]
  Trimeric HA Binding: RLU: 23500 RLU
[20]
  Trimeric HA Binding: RLU: 25500 RLU
[15]
  Trimeric HA Binding: RLU: 21200 RLU
[21]
  Trimeric HA Binding: RLU: 18000 RLU
[22]
  Trimeric HA Binding: RLU: 10200 RLU
[16]
  Trimeric HA Binding: RLU: 13800 RLU

B6: TCN-532 (5262_H18) (antibody, V domains shown)
VH: QVQLQESGPGLVKPSETLSLTCTVSGGSVSSETYYWSWIRQPPGKGLEWIGYIYYIGNTDYRPSLKSRVTISLDTSKNQFSLKLSSVTAADTAVYYCARGAYYDSSGYPAFYIWGQGTMVTVSS
VL: QSVLTQPPSVSGAPGQRVTISCTGSSSNIGSDYDVHWYKQLPGTAPKLLIFGNSNRPSGVPDRFSGSKSGTSASLAITGLQAEDEADYYCQSYDSSLSGFHVFGSGTKVTVL
[8]
  Trimeric HA Binding: RLU: 9970 RLU
[9]
  Trimeric HA Binding: RLU: 42 RLU
[21]
  Trimeric HA Binding: RLU: 29 RLU
[23]
  Trimeric HA Binding: RLU: 29 RLU
[16]
  Trimeric HA Binding: RLU: 59 RLU

B7: TCN-535 (5246_P19) (antibody, V domains shown)
VH: QVQLVQSGSEVKKPGTSVKVSCTASGSVFTNYGISWVRQAPGQGLEWMGGIIPLFGAAKYAQKFQGRVTITADESTKTVYMELSRLTSKDTAIYFCAKAPRVYEYYFDQWGQGTPVTVSS
VL: EIVLTQSPGTLSLSPGERATLSCRASQSVSSSQLAWYQQKPGQAPRLIIYGASTRATGIPDRFSGSGSGTDFTLTIGRLEPEDFAVFFCQQYSTSPPTFGQGTKVDFK
[24]
  Trimeric HA Binding: RLU: 25300 RLU
[11]
  Trimeric HA Binding: RLU: 25200 RLU
[12]
  Trimeric HA Binding: RLU: 836 RLU

B8: TCN-536 (5095_N01) (antibody, V domains shown)
VH: QVQLQQWGAGLLKPSETLSLTCAVYGGSFSVSGYYWSWIRQPPGRGLEWIGEISHGGSTNYNPSLKSRVTISVDTTKNQFSLRLSSVTAADTAVYYCARGTDPDTEVYCRVGNCAAFDYWGQGSLVTVSS
VL: EIILAQSPGTLSLSPGERATLSCRASQFVSTRSLAWYQQRPGQAPRLLIYGASSRATGIPDRFSGSGSGTDFTLTISRLEPEDFAVYYCQHYGYSPRYAFGQGSKVEIK
[25]
  Trimeric HA Binding: RLU: 168 RLU
[8]
  Trimeric HA Binding: RLU: 20600 RLU
[26]
  Trimeric HA Binding: RLU: 260 RLU
